Values quoted from earlier work as cited in patent US9045248B2 (priority 2007, dated 2015).

Molecular target: influenza virus RNP (Influenza A virus, UniProt P03428)
Details: read-out: IC50 measured by inhibition of capped RNA cross-linking by cap analogues; cited from earlier work

C[n+]1cn([C@@H]2O[C@H](COP(=O)(O)OP(=O)([O-])OP(=O)(O)OC[C@H]3O[C@@H](n4cnc5c(=O)[nH]c(N)nc54)[C@H](O)[C@@H]3O)[C@@H](O)[C@H]2O)c2nc(N)[nH]c(=O)c21 [m^7GpppG, 7-methyl-guanosine linked via a 5′ to 5′ triphosphate bridge to guanosine]
IC50: 127 µM
